A mixed list of measured activities; the numbers were collected in NIAID ChemDB.

Shared fields: growth or infection tests

Inhibition is in % at the dose shown (toxicity tests: loss of growth or viability).

SMILES	organism	strain or isolate	cells	read by	endpoint	dose	result
O=c1[nH]c(=O)n([C@H]2C[C@H](O)[C@@H](CO)O2)cc1/C=C/Br	Human herpesvirus 7	-	SupT1	syncytia	EC50	-	>20 µM
Cn1cc(C(=O)NCc2ccc(Cl)cc2)c(=O)c2cc(CN3CCOCC3)ccc21	Human cytomegalovirus	A	HFF	plaque count	inhibition	5.7 µM	90%
Nc1ncc2c(ncn2COC(CO)CO)n1	Human herpesvirus 7	-	SupT1	syncytia	EC50	-	0.0001 µM
C=C1[C@H](CO)[C@@H](O)C[C@@H]1n1cnc2c(=O)[nH]c(N)nc21	Human papillomavirus	-	WI-38	plaque count	EC50	-	3 µM
Nc1nc2c(ncn2CCC(CO)CO)c(=O)[nH]1	Human herpesvirus 7	SB	HUMAN CORD BLOOD CELLS	antigen	inhibition	100 µM	31%
Cc1c(S(=O)(=O)c2ccc(Cl)cc2)c(NC(=O)C(F)(F)F)n(Cc2ccccc2)c1C	Human herpesvirus 6	GS (TYPE 6A)	HSB-2	cytopathic effect	EC50	-	2.2 µg/mL
Nc1nc2c(ncn2[C@@H]2C[C@H](CO)[C@H]2CO)c(=O)[nH]1	Human herpesvirus 6	-	Human T-lymphoblasts	-	EC50	-	4.9 µM
Nc1ccn(C[C@H]2COP(=O)(O)CO2)c(=O)n1	Human cytomegalovirus	Towne (ganciclovir- foscarnet-susceptible)	MRC-5	plaque count	EC75	-	1.09 µM
N#CC1C(c2ccccc2)Nc2sccc2S1(=O)=O	Human herpesvirus 6	GS (TYPE 6A)	HSB-2	cytopathic effect	EC50	-	>20 µg/mL
OC[C@H]1O[C@@H](n2c(Br)nc3cc(Cl)c(Cl)cc32)[C@H](O)[C@@H]1O	Human cytomegalovirus	TOWNE	-	virus yield	EC50	-	<0.18 µM
O=C(O)C1=CC(=C(c2ccc(O)c(C(=O)O)c2)c2ccc(O)c(C(=O)O)c2)C=CC1=O	Human herpesvirus 7	-	SupT1	syncytia	EC50	-	2.8 µM
Nc1nc2c(ncn2COC(CO)CO)c(=O)[nH]1	Human cytomegalovirus	VR4991 (ganciclovir-resistant)	-	plaque count	EC90	-	92.5 µM
O=C(NCc1ccc(Cl)cc1)c1c[nH]c2c(F)cccc2c1=O	Human cytomegalovirus	HAR	-	plaque count	EC50	-	9.2 µM
Nc1nc2c(ncn2[C@@H]2C[C@H](CO)[C@H]2CO)c(=O)[nH]1.O=C(O)P(=O)(O)O	Human cytomegalovirus	AD169 (ganciclovir foscarnet-susceptible)	MRC-5	plaque count	EC75	-	0.99 µM
N#CC1C(c2ccc(Cl)cc2)Nc2ccccc2S1(=O)=O	Human herpesvirus 6	GS (TYPE 6A)	HSB-2	hybridisation	EC50	-	1.3 µg/mL
O=C(NCc1ccc(Cl)cc1)c1c[nH]c2c(F)cc(CCCO)cc2c1=O	Human cytomegalovirus	GDGrP53	-	plaque count	EC90	-	2.9 µM
O=C(O)P(=O)(O)O	Human cytomegalovirus	Towne (ganciclovir- foscarnet-susceptible)	MRC-5	plaque count	EC75	-	191 µM
Nc1nc2c(ncn2COC(CO)CO)c(=O)[nH]1	Human herpesvirus 7	-	SupT1	syncytia	EC50	-	>50 µM
CC(=O)N[C@@H](CC(C)C)C(=O)N[C@@H](CC(C)C)C(=O)N[C@H](C=O)CCCN=C(N)N	Human coronavirus	229E 229E	MRC-C	plaque count	inhibition	2 µg/mL	100%
Nc1ccn([C@@H]2C=C(CO)[C@@H](O)[C@H]2O)c(=O)n1	Human coronavirus	Strain 229E 229E	WI-38	cytopathic effect	EC50	-	10 µg/mL
Nc1ccn(C[C@@H](CO)OCP(=O)(O)O)c(=O)n1.O=C(O)P(=O)(O)O	Human cytomegalovirus	Towne (ganciclovir- foscarnet-susceptible)	MRC-5	plaque count	EC75	-	0.74 µM
NC1=NC2C(C=CN2CC(CO)CCO)C(=O)N1	Human herpesvirus 7	-	CD4+ T lymphocytes	syncytia	EC50	-	>230 µM
O=C(NCc1ccc(Cl)cc1)c1c[nH]c2ccc(CCCO)cc2c1=O	Human cytomegalovirus	759rD100	-	plaque count	EC90	-	2.1 µM
Nc1nc2c(ncn2C[C@]2(CO)C[C@H]2CO)c(=O)[nH]1	Human herpesvirus 6	TYPE 6B	MOLT-3	-	EC50	-	3.5 µg/mL
OC[C@H]1O[C@@H](n2c(Br)nc3cc(Cl)c(Cl)cc32)[C@H](O)[C@@H]1O	Human cytomegalovirus	AD169	MRC-5	hybridisation	EC50	-	0.54 µM

Lines come from different laboratories, so protocols vary. ECn is the concentration giving n% inhibition of infection, replication or growth. An empty or dashed field is not shown.